A mixed list of measured activities; the numbers were collected in NIAID ChemDB.

All rows: tests on isolated targets; species: HIV-1; target: Reverse transcriptase; endpoint: inhibition

Inhibition is in % at the dose shown (toxicity tests: loss of growth or viability). An empty or dashed field is not shown. Conditions beyond the fields shown may differ between rows.

compound	strain or isolate	mutations	dose	read by	result
CCN1C(=O)c2ccnnc2Oc2ccc(C)cc21			330 µM	ELISA	61%
CCN1c2ncccc2-c2nnsc2-c2cccnc21			1 µM	nucleotide incorporation	70%
C[C@@H]1CCCCCC[C@H](CCCCO)[NH+]=C(N)N1			10 µM	RT activity / radiometric	0%
COc1ccc(-c2n[nH]c(C)c2Oc2ccc3c(c2)OCCCO3)c(O)c1			100 µM	nucleotide incorporation / fluorescence	28%
C/C1=C\C=C\C2(C)C=C(CO)C(C)CC23OC([O-])C(C3=O)C(O)/C=C/C2(C)C=C(C=O)C(C)CC23OC([O-])C(C3=O)C(O)/C(C)=C/C=C/C2C=C(CO)C(C)CC23OC([O-])C(C3=O)C(O)/C=C/C2(C)C=C(C=O)C(C)CC23OC([O-])C(C3=O)C1O	IIIB		0.16 µg/mL	RT activity	36.7%
Nc1ncnc2c1ncn2[C@@H]1O[C@H](COP(=O)(O)O[C@@H]2[C@H](O)[C@@H](COP(=O)(O)O[C@@H]3[C@H](O)[C@@H](CO)O[C@H]3n3cnc4c(N)ncnc43)O[C@H]2n2cnc3c(N)ncnc32)[C@@H](O)[C@H]1O	IIIB		10 µM		12%
C[C@H]1/C=C/[C@@]2(C)CC[C@@H](C(C)(C)O)[C@@H]2[C@@H](O)C[C@](C)(O)/C=C/C1			40 µM	nucleotide incorporation / radiometric	64%
CC(=O)OCCCC[C@H]1CCCCCC[C@@H](C)NC(N)=[NH+]1			40 µM	RT activity / radiometric	0.3%
CS(=O)(=O)O.N[C@H]1CCN(c2nc3c(cc2F)c(=O)c(C(=O)O)cn3-c2cccc3ccccc23)C1			1 µg/mL	ELISA	31%
COc1ccc2c(c1)N(C(C)C)C(=O)c1ccnnc1O2			33 µM	ELISA	27%
CCOC(=O)Nc1ccc2c(c1)C=CC(C#N)N2C(=O)OCC			50 µM	nucleotide incorporation	≤30%
Nc1ncnc2c1ncn2[C@@H]1O[C@H](COP(=O)([O-])O)[C@@H](O)[C@H]1OP(=O)([O-])OC[C@H]1O[C@@H](n2cnc3c(N)ncnc32)[C@H](OP(=O)([O-])OC[C@@H]2C[C@@H](O)[C@H](n3cnc4c(N)ncnc43)O2)[C@@H]1O	IIIB		10 µM		19%
CCCCCCCCCCCCCCCCOCC(COC(=O)CCC(=O)OC1CC(COP(=O)(O)OC2CC(COP(=O)(O)OC3CC(CO)OC3n3cnc4c(N)ncnc43)OC2n2cnc3c(N)ncnc32)OC1n1cnc2c(N)ncnc21)OCCCCCCCCCCCCCCCC			300 µM		77%
CCN1c2ncccc2C(=O)Nc2c(Cc3ccccc3)cc(-c3cccc(OC)c3)nc21	WT		20 µM		1%
O=C(NCCc1c[nH]c2ccccc12)c1nc2ccccc2c(=O)[nH]1			100 µM	nucleotide incorporation / fluorescence	37%
CC1CN(c2nc3c(cc2F)c(=O)c(C(=O)O)cn3-c2cccc3ccccc23)CCN1.CS(=O)(=O)O			1 µg/mL	ELISA	49%
O=C(NCCc1ccccc1)Nc1ccn[nH]1			1 µg/mL	nucleotide incorporation	8%
COc1ccc2c(c1)C=CC(C#N)N2C(=O)OCC(C)C			50 µM	nucleotide incorporation	83%
CC(C)Nc1nccnc1N1CCN(C(=O)c2cc3cc(F)ccc3[nH]2)CC1			100 µM	nucleotide incorporation	94.5%
O=C(CCn1c(=O)[nH]c2ccccc2c1=O)N[C@@H](Cc1c[nH]c2ccccc12)C(=O)O			100 µM	nucleotide incorporation / fluorescence	0%
CCCCCN1C(=O)c2ccnnc2Oc2ccc(C)cc21			33 µM	ELISA	19%
CC(NC(=S)Nc1nc2ccccc2s1)c1ccccc1			50 µM	ELISA / absorbance	85.3%
CCN1c2ncccc2-c2cscc2-c2ccc(-c3cn[nH]c3)nc21			1 µM	nucleotide incorporation	68%
CCCCCCCCCCCCCCCC(=O)OCC(COC(=O)CCC(=O)OCC1CC(OP(=O)(O)OCC2CC(OP(=O)(O)OCC3CC(O)C(n4cnc5c(N)ncnc54)O3)C(n3cnc4c(N)ncnc43)O2)C(n2cnc3c(N)ncnc32)O1)OC(=O)CCCCCCCCCCCCCCC			300 µM		88%
O=C(NCCc1ccccc1)Nc1nc(-c2ccc(Br)cc2)cs1			1 µg/mL	nucleotide incorporation	1%
CC(C)OC(=O)N1c2ccccc2C=CC1C#N			50 µM	nucleotide incorporation	89.1%
NCC1OC(n2cnc3c(N)ncnc32)C(OP(=O)(O)OCC2OC(n3cnc4c(N)ncnc43)C(OP(=O)(O)OCCOCn3cnc4c(N)ncnc43)C2O)C1O	IIIB		100 µM	RT activity	63%
Cc1cn([C@H]2C[C@H](F)[C@@H](COP(=O)(O)OP(=O)(O)OP(=O)(O)O)O2)c(=O)[nH]c1=O	IIIB		0.1 µM		38%
Cc1ccc2c(c1)N(CCCCl)C(=O)c1ccnnc1O2			330 µM	ELISA	52%
NOCc1c(F)cccc1Cl			4 µg/mL	nucleotide incorporation	0%
CCn1c2ccccc2c2ccc(N)nc21			100 µM	nucleotide incorporation / fluorescence	23%
NC1C(O)OC(COS(=O)(=O)O)C(O)C1O			50 µg/mL	RT activity	32%
C[C@@H]1CCCCCC[C@H](CCCCO[Si](C)(C)C(C)(C)C)[NH+]=C(N)N1			10 µM	RT activity / radiometric	15.5%
N#CC1C=Cc2ccccc2N1C(=O)c1cccnc1			50 µM	nucleotide incorporation	≤30%
CC(C)Nc1cccnc1N(C)C1CCN(C(=O)c2cc3ccccc3[nH]2)C1			100 µM	nucleotide incorporation	24%
CCN1c2ncccc2C(=O)Nc2c(C3OCCCO3)cc(OC)nc21	WT		52 µM		1%
COC(=O)c1cc(O)c(O)c(O)c1			100 µM	ELISA	55.6%
CC(C)(C)c1csc(NC(=O)NCCc2ccccc2)n1			0.1 µg/mL	nucleotide incorporation	8%
CCOC(=O)N1c2ccc(F)cc2C=CC1C#N			50 µM	nucleotide incorporation	≤30%
CCCCCCCCCCCC(=O)OCCCC[C@H]1CCCCCC[C@@H](C)NC(N)=[NH+]1			40 µM	RT activity / radiometric	36.1%
CCNc1cccnc1N1CCN(CCCc2cc(C)c(O)c(C)c2)CC1			100 µM	nucleotide incorporation	23%
CC(C)=CCC/C(C)=C/Cc1c(O)cc(O)c(C/C=C(\C)CCC=C(C)C)c1C(=O)c1c(O)cc(O)cc1O			200 µg/mL	nucleotide incorporation / radiometric	97.7%
CC(O)CCCCC[C@H]1CCCCCC[C@@H](C)NC(N)=[NH+]1.F[B-](F)(F)F			40 µM	RT activity / radiometric	0%
O=C(c1cc2ccccc2[nH]1)N1CCN(c2ncccc2NCc2ccccc2)CC1			100 µM	nucleotide incorporation	15%
CCN1c2ncccc2C(=O)Nc2c(COCc3ccccc3)cc(=O)[nH]c21		RT-Y181C	38 µM		1%
CS(=O)(=O)O.N[C@H]1CCN(c2cc3c(cc2F)c(=O)c(C(=O)O)cn3-c2cccc3ccccc23)C1			1 µg/mL	ELISA	39%
Nc1ncnc2c1ncn2[C@@H]1O[C@H](COP(=O)([O-])O)[C@@H](O)[C@H]1OP(=O)([O-])OC[C@@H]1C[C@@H](OP(=O)([O-])OC[C@@H]2C[C@@H](O)[C@H](n3cnc4c(N)ncnc43)O2)[C@H](n2cnc3c(N)ncnc32)O1	IIIB		10 µM		17%
CCCCCCCCCCCCCCCC(=O)NCC1OC(n2cnc3c(N)ncnc32)C(OP(=O)(O)OCC2OC(n3cnc4c(N)ncnc43)C(OP(=O)(O)OCCOCn3cnc4c(N)ncnc43)C2O)C1O	IIIB		100 µM	RT activity	64%
CC(C)Nc1cccnc1N(C)C1CCC(N(C)C(=O)c2cc3ccccc3[nH]2)CC1			100 µM	nucleotide incorporation	4%
CS(=O)(=O)O.O=C(O)c1cn(-c2ccc3ccccc3c2)c2cc(N3CCNCC3)c(F)cc2c1=O			1 µg/mL	ELISA	58%
CCN1C(=O)c2ccnnc2Oc2c(C)cc(C)cc21			330 µM	ELISA	88%
Cc1c(C)c2c(c(C)c1OC(=O)OC1CC(COP(=O)(O)OC3CC(COP(=O)(O)OC4CC(CO)OC4n4cnc5c(N)ncnc54)OC3n3cnc4c(N)ncnc43)OC1n1cnc3c(N)ncnc31)CCC(C)(CCCC(C)CCCC(C)CCCC(C)C)O2			300 µM		52%
CC(=O)O[C@H]1CC[C@@]2(C)[C@@H](CC[C@@]3(C)[C@H]2CC=C2[C@@H]([C@H](C)CC/C=C(\C)C(=O)O)CC[C@@]23C)C1(C)C			200 µg/mL	nucleotide incorporation / radiometric	96.2%
O=C(NCCc1ccccc1)Nc1ccc(Cl)cc1			10 µg/mL	nucleotide incorporation	35%
COc1ccc2c(c1)N(CCCCl)C(=O)c1ccnnc1O2			33 µM	ELISA	27%
Fc1cccc(Cl)c1CCNC(=S)Nc1nccs1			0.1 µg/mL	nucleotide incorporation	43%
CCNc1cccnc1N1CCN(Cc2cc(C)c(SC)c(C)c2)CC1			100 µM	nucleotide incorporation	30%
Nc1ncnc2c1ncn2C1OC(COP(=O)(O)OC2C(O)C(COP(=O)(O)OC3CC(CO)OC3n3cnc4c(N)ncnc43)OC2n2cnc3c(N)ncnc32)CC1O	IIIB		10 µM		16%
CCSC(=O)N1c2ccccc2C=CC1C#N			50 µM	nucleotide incorporation	≤30%
O=C(NCCc1ccccc1)Nc1ccccc1Cl			0.1 µg/mL	nucleotide incorporation	5%
Nc1ncnc2c1ncn2[C@@H]1O[C@H](COP(=O)([O-])O[C@@H]2C[C@@H](COP(=O)([O-])O[C@@H]3C[C@@H](COP(=O)([O-])O)O[C@H]3n3cnc4c(N)ncnc43)O[C@H]2n2cnc3c(N)ncnc32)[C@@H](O)[C@H]1O	IIIB		10 µM		13%
COc1ccccc1-c1cn[nH]c1-c1ccc(O)cc1O			100 µM	nucleotide incorporation / fluorescence	39%
CCN1c2ncccc2C(=O)Nc2c(Cc3ccccc3)cc(=O)[nH]c21	WT		67 µM		1%
Nc1ncnc2c1ncn2[C@@H]1O[C@H](COP(=O)(O)O[C@@H]2[C@H](O)[C@@H](COP(=O)(O)O[C@@H]3[C@H](O)[C@@H](COP(=O)(O)O)O[C@H]3n3cnc4c(N)ncnc43)O[C@H]2n2cnc3c(N)ncnc32)[C@@H](O)[C@H]1O	IIIB		10 µM		22%
CN1C(=O)c2ccnnc2N(C2CC2)c2ccccc21			33 µM	ELISA	26%
CC1CN(c2cc3c(cc2F)c(=O)c(C(=O)O)cn3-c2cccc3ccccc23)CCN1.CS(=O)(=O)O			1 µg/mL	ELISA	24%
CC(=O)NC1[C@H](COC[C@@H]2C(CO)O[C@@H](COC[C@@H]3C(CO)O[C@@H](O)C(NC(C)=O)[C@@H]3O)C(NC(C)=O)[C@@H]2O)OC(CO)[C@@H](O)[C@H]1O			50 µg/mL	RT activity	2%
CCCCCCCCCCCCCCCC(=O)OCC(COC(=O)CCC(=O)OC1CC(COP(=O)(O)OC2CC(COP(=O)(O)OC3CC(CO)OC3n3cnc4c(N)ncnc43)OC2n2cnc3c(N)ncnc32)OC1n1cnc2c(N)ncnc21)OC(=O)CCCCCCCCCCCCCCC			300 µM		78%

Repeating the first 7 entries:

{"compound": "CCN1C(=O)c2ccnnc2Oc2ccc(C)cc21", "dose": "330 µM", "read by": "ELISA", "result": "61%"}
{"compound": "CCN1c2ncccc2-c2nnsc2-c2cccnc21", "dose": "1 µM", "read by": "nucleotide incorporation", "result": "70%"}
{"compound": "C[C@@H]1CCCCCC[C@H](CCCCO)[NH+]=C(N)N1", "dose": "10 µM", "read by": "RT activity / radiometric", "result": "0%"}
{"compound": "COc1ccc(-c2n[nH]c(C)c2Oc2ccc3c(c2)OCCCO3)c(O)c1", "dose": "100 µM", "read by": "nucleotide incorporation / fluorescence", "result": "28%"}
{"compound": "C/C1=C\\C=C\\C2(C)C=C(CO)C(C)CC23OC([O-])C(C3=O)C(O)/C=C/C2(C)C=C(C=O)C(C)CC23OC([O-])C(C3=O)C(O)/C(C)=C/C=C/C2C=C(CO)C(C)CC23OC([O-])C(C3=O)C(O)/C=C/C2(C)C=C(C=O)C(C)CC23OC([O-])C(C3=O)C1O", "strain or isolate": "IIIB", "dose": "0.16 µg/mL", "read by": "RT activity", "result": "36.7%"}
{"compound": "Nc1ncnc2c1ncn2[C@@H]1O[C@H](COP(=O)(O)O[C@@H]2[C@H](O)[C@@H](COP(=O)(O)O[C@@H]3[C@H](O)[C@@H](CO)O[C@H]3n3cnc4c(N)ncnc43)O[C@H]2n2cnc3c(N)ncnc32)[C@@H](O)[C@H]1O", "strain or isolate": "IIIB", "dose": "10 µM", "result": "12%"}
{"compound": "C[C@H]1/C=C/[C@@]2(C)CC[C@@H](C(C)(C)O)[C@@H]2[C@@H](O)C[C@](C)(O)/C=C/C1", "dose": "40 µM", "read by": "nucleotide incorporation / radiometric", "result": "64%"}